The values that follow come from the supplement of paper PMC9931576.

To fix the notation:
B1: BD-670 (protein)
chain 1: QVQLVESGGGVVQPGRSLRLSCAASGFTFTDYILNWVRQAPGKGPEWLAVISYDGNNYYYTDSVKGRFTISRDTSKNTLYLQMNNLRPEDTAIYYCVRCPPPRSWFYFDYWGQGTLVTVSS
chain 2: DIQMTQSPSTLSASVGDRVTITCRASQNVVSWLAWYQQKPGKAPKVLIYEASSLETGVPSRFSGSGSGTEFTLTISSLQPDDIATYYCQQYNSYSTFGQGTKVEVK
B2: BD55-988 (protein)
chain 1: QVQLQQWGAGLLKPSDTLSRTCAVYGGSFSNYYWSWIRQFPGKGLEWIAEISDGGSTNYNPSLKSRVTISVDPSKKQFSLTLRSVTAADTAVYFCARGRRHYFDRPGFNHYYFYGLDVWAQGTTVIVSS
chain 2: SSELTQDPAVSVALGQTVTITCQGDSLRSHDACWYQQKSGQAPVLLIYDKDSRPSGIPDRFSGSGSGNTASLTITGAQAEDEADYYCNSRDSPGENLLFGGGTKVTVL
B3: BD-744 (protein)
chain 1: EVQLVESGGGLVQPGRSLRLSCAASGFTFDDYAMHWVRQAPGKGLEWVSGASWNSGTIGYADSVKGRFIIIRDNAKNSLYLQMNSLRSEDTASYYCAKDFSRDGDAFDIWGQGTMVTVSS
chain 2: SYVLPQPPSVSVAPGKTARITCGGNNIEHKSVHWYQQKPRQAPVVVMYYDSDRPSGIPERFSGSNSGNTATLIISRVEAGDEAEYYCQVWDRSSDQPVFGGGTKLTVL
B4: BD-758 (protein)
chain 1: QVQLVESGGGVVQPGRSLRLSCAASGFTFSSYGMHWVRQAPGKGLEWVAVIWFDGIDKYYTDSVKGRFSISRDNSKNTMYLQMNSLRVGDTAVYYCAKDMIRGETHFNYYMDVWGKGTTVTVSS
chain 2: QSALTQPRSVSGSPGQSVTISCTGTSSDIGDYDYVSWYQQHPGKAPKFMIYDVNKRPSGVPDRFSGSKSGNTASLTISGLQAEDEADYYCCSYAGSFVVFGGGTKLTIL
B5: BD-923 (protein)
chain 1: EVLLVESGGGLVQPGRSLRLSCTASGFTFEDYAMHWVRQAPGKGLEWVSGMSWNSGTIGYADSVRGRFIISRDNAKNSLYLQMNSLRAEDTALYYCGKDRGFGESLYYVMDVWGQGATVTVSS
chain 2: QSALTQPASVSGSPGQSITISCTGTSSDVGVYNYVSWYQQHPGKAPKLMIYNVSDRPSGVSNRFSGSKSGNTASLTISGLQAEDEADYYCSSYTSSSIVIFGGGTKLTVL
B6: BD-917 (protein)
chain 1: EVQLVESGGGLVQPGRSLRLSCAASGFTFDDYAMHWVRQVPGKGLEWVSGISWSGSSLQYADSVKGRFTISRDNAKNSLFLQMNSLRAEDTAFYYCAKGVLGEWEFLFDNWGQGTLVTVSS
chain 2: QSVLTQPPSASGTPGQRVTISCSGSSSNIGSYSVNWYQQLPGTAPKLLIYTHHQRPSGVPDRFSGSKSGTSASLTISGLQSEDEADYYCAGWDDSMSALVFGGGTKLTVL
B7: BD55-319 (protein)
chain 1: QVQLQESGPGLVKPSETLSLTCTVSGGSISSYYWSWIRQTPGKGLEWIGYIYYSGSTKYNPSLKSRVTISVDTSKKQFSLKLSSVTAADTAVYYCARSAVPVAGVDYWGQGTLVTVSS
chain 2: NFMLTQPHSVSESPGKTVTISCTGSSGSIASNYVQWYQQRPGSAPTTVIYEDNQRPSGVPDRFSGSIDSSSNSASLTISGLKTEDEADYYCQSYDSSFWVFGGGTKVTVL

Human monoclonal antibodies against the spike receptor-binding domain (heavy:light variable regions). IC50 against pseudoviruses bearing the spike of naturally observed variants; lower = stronger; >10 µg/ml means not reached at the top dose. No active / inactive call. The stated detection limit is 0.0005 µg/ml; values near or below 0.001 µg/ml lie at the floor of the assay.

In the first assay the target is SARS-CoV-2 Omicron BA.1 spike pseudovirus. Description: pseudovirus neutralization IC50; higher = weaker neutralization. Here is the method:
(§1)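 Single-round VSV luciferase pseudovirus mixed with antibody dilutions for 1 h and put on Huh-7 cells for about a day; IC50 from the dose curve.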
B1: the “pseudovirus neutralization IC50” value is > 10 mg/L.
As for B2, the “pseudovirus neutralization IC50” value was > 10 mg/L.
Turning to B3, the “pseudovirus neutralization IC50” value was determined as 0.151 mg/L.
On the same count and under the same terms, the result for B4 reads > 10 mg/L.
For the molecule B5, the “pseudovirus neutralization IC50” value was determined as 1.22 mg/L.
In the case of B6, the “pseudovirus neutralization IC50” value came to 2.83 mg/L.
For B7, the “pseudovirus neutralization IC50” value was > 10 mg/L.

The target in the next assay is SARS-CoV-2 Omicron BA.2 spike pseudovirus. The description is as above. Here is the method:
as §1
For B1, the “pseudovirus neutralization IC50” value is > 10 mg/L.
Turning to B2, the “pseudovirus neutralization IC50” value was > 10 mg/L.
For B3, the “pseudovirus neutralization IC50” value is 0.138 mg/L.
Still for that read-out and setting: the result for B4 reads > 10 mg/L; that for B5, 0.753 mg/L; that for B6, 2.83 mg/L.
In the case of B7, the “pseudovirus neutralization IC50” value is > 10 mg/L.

The next assay has as its target SARS-CoV-2 Omicron BA.2.75 spike pseudovirus. The assay is described as above. Here is the method: as §1
For the molecule B1, the “pseudovirus neutralization IC50” value was > 10 mg/L.
B2: the “pseudovirus neutralization IC50” value was > 10 mg/L.
Regarding B3, the “pseudovirus neutralization IC50” value came to 0.126 mg/L.
Still for that read-out and setting: the result for B4 reads > 10 mg/L; that for B5, 1.01 mg/L.
For B6, the “pseudovirus neutralization IC50” value was 2.81 mg/L.
As for B7, the “pseudovirus neutralization IC50” value is > 10 mg/L.

In the next assay the target is SARS-CoV-2 Omicron BA.5 spike pseudovirus. Described as above. Here is the method: as §1
Consider B1, for which the “pseudovirus neutralization IC50” value is > 10 mg/L.
For B2, the “pseudovirus neutralization IC50” value was > 10 mg/L.
On the same count and under the same terms, the result for B3 reads 0.899 mg/L.
As for B4, the “pseudovirus neutralization IC50” value was > 10 mg/L.
Still for that read-out and setting: the result for B5 reads > 10 mg/L.
Still for that read-out and setting: the result for B6 reads 3.91 mg/L; that for B7, > 10 mg/L.

A further assay concerns the target SARS-CoV-2 Omicron BQ.1.1 spike pseudovirus. The description is as above. Here is the method: as §1
Consider B1, for which the “pseudovirus neutralization IC50” value was > 10 mg/L.
As for B2, the “pseudovirus neutralization IC50” value is > 10 mg/L.
Consider B3, for which the “pseudovirus neutralization IC50” value was > 10 mg/L.
On the same count and under the same terms, the result for B4 reads > 10 mg/L; that for B5, > 10 mg/L; that for B6, 3.34 mg/L.
As to B7, the “pseudovirus neutralization IC50” value is > 10 mg/L.

Another assay has as its target SARS-CoV-2 Omicron XBB spike pseudovirus. Described as above. Here is the method: as §1
As for B1, the “pseudovirus neutralization IC50” value was > 10 mg/L.
Same read-out and setting: the result for B2 reads > 10 mg/L.
As to B3, the “pseudovirus neutralization IC50” value amounted to 5.18 mg/L.
For B4, the “pseudovirus neutralization IC50” value is > 10 mg/L.
The same measure, in the same setting: the result for B6 reads 5.4 mg/L; that for B7, > 10 mg/L.

For another assay, the target named is SARS-CoV-2 early D614G spike pseudovirus. The assay is described as above. Here is the method:
as §1
Take B1: the “pseudovirus neutralization IC50” value is 0.493 mg/L.
Consider B2, for which the “pseudovirus neutralization IC50” value is > 10 mg/L.
B3: the “pseudovirus neutralization IC50” value was found to be 0.0523 mg/L.
For B4, the “pseudovirus neutralization IC50” value was determined as 0.926 mg/L.
As for B5, the “pseudovirus neutralization IC50” value was determined as 0.426 mg/L.
The same measure, in the same setting: the result for B6 reads 1.05 mg/L; that for B7, > 10 mg/L.
